PubChem BioAssay AID504761, Drosophila RNAi Screening Center – 2011

Screen: 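Insect host genes that dengue virus relies on to spread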 (primary screen)
Cells: D.Mel-2 cells from Drosophila
Knock-down reagent: long dsRNA against Drosophila genes
Treatment: infection with dengue virus type 2; dose and infection time not stated
Read-out: 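Cells stained for dengue envelope protein and imaged; percent of infected cells per well on duplicate plates, ranked by infection, with stained nuclei counted for cell number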
Scale: infection score: higher = more virus-infected cells; cell count: higher = more cells in the well
Active means: 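Very low infection ranking in both replicate wells (chance probability at most 0.065), then a retest showing infection dropped 1.5-fold or more at p below 0.05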
Calls: active = confirmed: knock-down lowers infection; inactive = not picked or not confirmed
The screen tested about 22,000 reagents; this is a random part of those with a known target gene and a result. Of all reagents, 116 (0.52%) are marked active. 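Calls depend on retest data that are not deposited; infection was ranked per plate without normalising between plates; the unit of the infection score is not given.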 The raw values are shown without normalisation. The numbers tell different reagents against one gene apart. The record does not give: the amount of reagent, the time to read-out.

no.	predicted target	reagent no.	infection score, replicate 1	infection score, replicate 2	cell count, replicate 1	cell count, replicate 2	Call
1	ItgaPS4 (Integrin alphaPS4 subunit)	1	8.63	12.3	6219	6651	inactive
2	CG12096	1	0.81	8.4	6301	7062	inactive
3	CG12096	2	8.54	7.08	6724	6103	inactive
4	Ctl1 (Choline transporter-like 1)	1	0.69	0.95	5982	5924	inactive
5	fd96Cb (forkhead domain 96Cb)	1	5.06	0.21	6745	476	inactive
6	fd96Cb (forkhead domain 96Cb)	2	0.64	0.45	5745	6169	active
7	CG9782	1	2.83	2.29	6014	5460	inactive
8	CG9782	2	4.55	22.7	6480	6186	inactive
9	CG9782	3	6.42	10.3	6857	6548	inactive
10	CG33221 (retired record)	1	10.2	15.2	6208	5188	inactive
11	CG1136	1	17.8	20.9	4413	5304	inactive
12	CG32066	1	7.57	1.69	6089	6210	inactive
13	CG32066	2	0.98	1.36	5709	5968	inactive
14	Mer (Merlin)	1	5.52	2.59	2645	5900	inactive
15	CG12395	1	1.12	2.72	6269	6535	inactive
16	CG9240	1	2.94	14.1	6159	1925	inactive
17	M7BP (Myosin-7a binding protein)	1	15.3	25.6	5837	4931	inactive
18	CG11007	1	7.72	15.3	5489	5179	inactive
19	SIFaR (SIFamide receptor)	1	6.18	2.66	6455	5930	inactive
20	SIFaR (SIFamide receptor)	2	5.31	1.2	6272	6024	inactive
21	CG30273	1	3	2.43	6832	6696	inactive
22	CG30273	2	5.21	4.86	5724	6152	inactive
23	btn (buttonless)	1	2.94	7.52	6258	5837	inactive
24	E(spl)m4-BFM (Enhancer of split m4, Bearded family member)	1	1.4	3.94	6717	6468	inactive
25	E(spl)m4-BFM (Enhancer of split m4, Bearded family member)	2	3.46	11.1	7146	1430	inactive
26	CG14569	1	8.01	12.3	6601	6652	inactive
27	CG3335	1	4.82	3.29	4983	5408	inactive
28	CG3335	2	37.3	20	4749	5189	inactive
29	CG17361	1	2.74	3.86	6023	5699	inactive
30	spn-F	1	7.2	1.79	1959	6243	inactive
31	spn-F	2	17.1	7.8	2939	1589	inactive
32	CkIIbeta (Casein kinase II beta subunit)	1	6.51	1.07	5327	5320	inactive
33	JYalpha	1	1.49	4.95	6372	6668	inactive
34	Mal-A2 (Maltase A2)	1	2.14	6.17	6272	6514	inactive
35	gry (gryzun)	1	1.9	0.35	6747	6234	inactive
36	gry (gryzun)	2	11.2	8.43	6361	6183	inactive
37	Cf2 (Chorion factor 2)	1	0.88	2.72	6624	7064	inactive
38	Cf2 (Chorion factor 2)	2	14.1	2.18	5672	6387	inactive
39	CG6040	1	1.49	4.27	6790	6136	inactive
40	CG6040	2	11.8	5.92	5830	5963	inactive
